# Target: radiolabeled S375W HIVYU2 gp120 binding to Cf2Th-CCR5 cells (Human immunodeficiency virus type 1 group M subtype B, UniProt P35961, S370W)
# Assay type: cell-based
structure (smiles),measurement,value
COc1ccnc2[nH]cc(C(=O)C(=O)N3CCN(C(=O)c4ccccc4)C[C@H]3C)c12 [BMS-806],enhancement of gp120 binding to CCR5+ cells (in words),did not enhance the binding
